## Results of single-concentration screens

Data taken from ChEMBL document CHEMBL3988442, “University of Dundee, Small-Polar-MMV Screening Library” (2021).

Mtb cholesterol medium: 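Phenotypic screen: M. tuberculosis growth, cholesterol and DPPC medium, 4 days; the read-out is not stated. Concentration: 500 µM. Direction is inferred from retests: higher values go with more growth inhibition. About 18,000 compounds were tested under these conditions; 5% (about 900) showed 50% or more at least once.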
Mtb glucose medium: 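Whole-cell growth test on Mycobacterium tuberculosis, read after 3 days in glucose-containing 7H9 medium; the read-out is not stated. Tested at 500 µM. The record gives no direction; compounds that gave an IC50 in retests scored well above the rest, so higher reads as more growth inhibition. Size under these conditions: about 18,000 compounds, about 1,400 of them at 50% or above in at least one test.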

Each number is a percent effect as filed. The controls that fix the scale are not given in the record; negative values are as filed. The entries come from a sample that favours strong results.

- COc1c(C)cccc1CN : Mtb glucose medium: 6.58%
- CC(=O)c1ccc(NC(=O)N2CC[C@H]3CNC[C@H]32)cc1 : Mtb glucose medium: 41.68%
- CCn1ncnc1CN1CCCC(CS(C)(=O)=O)C1 (centres unmarked) : Mtb glucose medium: 0.4206%
- CC(C)C(=O)NCCCNC(=O)c1ccc(F)cc1O : Mtb cholesterol medium: 50.74%; Mtb glucose medium: 64.39%
- COc1cc(-c2cnn(CCC(N)=O)c2)c(Cl)cn1 : Mtb cholesterol medium: -10.76%
- CC(N)C(=O)Nc1ccc(Cl)cc1 (centres unmarked) : Mtb glucose medium: 24.08%
- COCC(=O)NCc1ccccc1CN1CCCC1=O : Mtb glucose medium: -8.054%
- Cc1nc(CN)ccc1C(C)O (centres unmarked) : Mtb cholesterol medium: -26.34%
- N#Cc1cccnc1OC1CCC(N)CC1 (centres unmarked) : Mtb glucose medium: 25.23%
- CN(C)C(=O)CSc1ncccc1C#N : Mtb glucose medium: -0.3094%
- CCNC(=O)CN1CCN(c2cc(C)nc(C)n2)CC1 : Mtb cholesterol medium: 0.961%
- Cc1cc(S(=O)(=O)Nc2cccnc2N(C)C)c(C)o1 : Mtb glucose medium: 46.69%
- O=C(Cc1ccccc1)NC1CCNCC1 : Mtb glucose medium: -3.139%
- CN(C)C(=O)CNC(CO)c1ccc(Cl)c(F)c1 (centres unmarked) : Mtb cholesterol medium: -16.18%
- O=S(=O)(NCCC(O)c1ccccc1)c1c[nH]cn1 (centres unmarked) : Mtb cholesterol medium: 4.613%
- CS(=O)(=O)Nc1cccc(C(=O)NCc2ccco2)c1 : Mtb glucose medium: 29.71%
- Cc1cc(NC(=O)Cc2ccc3c(c2)OCCO3)no1 : Mtb cholesterol medium: 34.03%; Mtb glucose medium: 53.28%
- CC(C)[C@H]1CN(S(=O)(=O)c2ccccc2F)C[C@@H]1N : Mtb cholesterol medium: 26.97%
- NC(=O)Cc1cccc(O)c1 : Mtb cholesterol medium: 7.474%
- Cc1cc(NC(=O)CN2CCSCC2)n(C)n1 : Mtb glucose medium: 10.38%
- CCOc1ccc(Cl)cc1CNCCNCCO : Mtb cholesterol medium: 20.1%; Mtb glucose medium: 30.99%
- CCC(=O)N1CCC(CCCN2CCOCC2)CC1 : Mtb glucose medium: -0.7909%
- CC(C)(C)OC(=O)N1CCOCC1 : Mtb cholesterol medium: -0.6499%
- CN1CCN(C(=O)c2cc3ccccc3o2)CC1 : Mtb cholesterol medium: 2.329%; Mtb glucose medium: 66.64%
- COCCOC1CCN(c2cc(N)nc(C)n2)CC1 : Mtb cholesterol medium: -6.297%; Mtb glucose medium: 10.85%
- CN(CCCOc1ccc(Cl)cc1)CC(N)=O : Mtb cholesterol medium: 40.09%; Mtb glucose medium: 32.28%
- CN(C)c1ncc(CN2CCCCC2CO)cn1 (centres unmarked) : Mtb cholesterol medium: 1.424%
- Cc1ccnc(OC2CCNCC2)c1 : Mtb glucose medium: 20.99%
- CN(C)Cc1ccc(C(=O)NCCCc2ccco2)o1 : Mtb cholesterol medium: 29.06%
- O=c1[nH]c2ccc(NCc3ccncc3)cc2[nH]1 : Mtb glucose medium: 21.9%

Repeated from the top, 4 entries:

{"compound": "COc1c(C)cccc1CN", "Mtb glucose medium": 6.58}
{"compound": "CC(=O)c1ccc(NC(=O)N2CC[C@H]3CNC[C@H]32)cc1", "Mtb glucose medium": 41.68}
{"compound": "CCn1ncnc1CN1CCCC(CS(C)(=O)=O)C1", "stereo": "centres unmarked", "Mtb glucose medium": 0.4206}
{"compound": "CC(C)C(=O)NCCCNC(=O)c1ccc(F)cc1O", "Mtb cholesterol medium": 50.74, "Mtb glucose medium": 64.39}